Measured values from several laboratories, pooled; numbers as filed in NIAID ChemDB.

Shared fields: enzyme or target tests

Two numbers with a dash give a range or band. Inhibition is in % at the dose shown (toxicity tests: loss of growth or viability). Conditions beyond the fields shown may differ between rows. ICn: concentration for n% inhibition. Blank or dashed fields: not listed here.

structure	tested at	protein	agent	read-out	result
O=C(O)c1ccc2c(c1)nc(-c1ccc3nc(-c4cc(OCCCN5CCCC5)ccc4-c4ccc(Cl)cc4)ccc3c1)n2C1CCCCC1	33 µM	NS5B polymerase	Hepatitis C virus	inhibition	97.83%
Cc1ccc(C(=O)N(c2cc(-c3ccccc3)sc2C(=O)O)C(C)C)c(O)c1		NS3 ATPase	Hepatitis C virus	IC50	5–20 µM
O=C(O)c1nc(-c2ccccc2NS(=O)(=O)c2ccc(Cc3ncc(C(F)(F)F)cc3Cl)cc2)[nH]c(=O)c1O		HCV polymerase	Hepatitis C virus	IC50	<100 µM
COc1ccc(-c2ccc(Cl)cc2)c(-c2ccc3cc(-c4nc5cccc(C(=O)O)c5n4C4CCCCC4)ccc3n2)c1	100 µM	NS5B polymerase	Hepatitis C virus	inhibition	102%
O=C(NCc1ccccc1F)Nc1ccccc1-c1nc(C(=O)O)c(O)c(=O)[nH]1		HCV polymerase	Hepatitis C virus	IC50	<100 µM
CON1C(Nc2ccc3cn[nH]c3c2)=NC(NC(C)C)=NC1NC(C)C	0.1 µg/mL	DNA polymerase	Hepatitis B virus	inhibition	52%
CNC(=O)c1c(-c2ccc(F)cc2)oc2cc(N(C)CCOC)c(OC(C)C)cc12		Nonstructural protein 5B	Hepatitis C virus	IC50	≤0.5 µM
Cc1onc(-c2ccc(Cl)cc2)c1-c1ccc2cc(-c3nc4cc(C(=O)O)ccc4n3C3CCCCC3)ccc2n1	100 µM	NS5B polymerase	Hepatitis C virus	inhibition	100%
CC[C@H](NC(=O)[C@H](CC(C)C)NC(=O)[C@@H](NC(=O)[C@@H](NC(=O)c1cnccn1)C(C)C)C(C)C)C(=O)C(=O)NCc1ccccc1		NS3 protease	Hepatitis C virus	Ki	1–100 µM
CCOc1cc2c(C(=O)NC)c(-c3ccc(F)cc3)oc2cc1-c1c(C)noc1C		Nonstructural protein 5B	Hepatitis C virus	IC50	≤0.5 µM
CC[C@@H](C=O)NC(=O)[C@@H]1C[C@@H](OC(=O)Nc2ccccc2C(C)C)CN1C(=O)[C@@H](NC(=O)[C@@H](NC(=O)c1cnccn1)C(C)C)C(C)C		NS3 protease	Hepatitis C virus	Ki	1–100 µM
COc1nc(NCCO)nc(Nc2ccc3cn[nH]c3c2)n1	10 µg/mL	Nonstructural protein 5B	Hepatitis C virus	inhibition	81%
O=C(O)c1ccc2c(c1)nc(-c1ccc3nc(-c4ccccc4-c4ccc(Cl)c(Cl)c4)ccc3c1)n2C1CCCCC1	100 µM	NS5B polymerase	Hepatitis C virus	inhibition	99.93%
CCC(=O)N(Cc1ccc(C(F)(F)F)cc1)c1cc(-c2ccccc2)sc1C(=O)O		NS3 ATPase	Hepatitis C virus	IC50	5–20 µM
Nc1ccc(S(=O)(=O)Nc2ccccc2-c2nc(C(=O)O)c(O)c(=O)[nH]2)cc1Cl		HCV polymerase	Hepatitis C virus	IC50	<100 µM
Cc1cc(-c2ccc3cc(-c4nc5cc(C(=O)O)ccc5n4C4CCCCC4)ccc3n2)c(O)c([N+](=O)[O-])c1	100 µM	NS5B polymerase	Hepatitis C virus	inhibition	103%
O=C(O)c1cnn2c(C3CCCCC3)c(-c3ccc(-c4cccc(Cl)c4)cc3)cnc12		RNA-dependent RNA polymerase	Hepatitis C virus	IC50	1–10 µM
CC(=O)Nc1ccc(-c2ccc3cc(-c4nc5cc(C(=O)O)ccc5n4C4CCCCC4)ccc3n2)cc1	100 µM	NS5B polymerase	Hepatitis C virus	inhibition	96.82%
O=C(Nc1ccccc1-c1nc(C(=O)O)c(O)c(=O)[nH]1)c1ccc(OC(F)(F)F)cc1		HCV polymerase	Hepatitis C virus	IC50	<100 µM
COc1ccc(-c2cc(-c3ccc(C(F)(F)F)cc3)nc3cc(C(=O)O)nn23)cc1F		RNA-dependent RNA polymerase	Hepatitis C virus	IC50	>10 µM
CC(=O)c1ccc(-c2cc(N(C(=O)c3ccc(Cl)cc3Cl)C(C)C)c(C(=O)O)s2)cc1		NS3 ATPase	Hepatitis C virus	IC50	<5 µM
CCCC(C(=O)N[C@H](C(=O)N1C[C@H](OCc2ccccc2)C[C@H]1C(=O)N[C@H](C=O)CC)C(C)C)c1ccccc1		NS3 protease	Hepatitis C virus	Ki	1–100 µM
O=C(O)c1ccc2c(c1)nc(-c1ccc3nc(-c4ccc(Oc5ccc(Cl)cc5)cc4Cl)ccc3c1)n2C1CCCCC1	33 µM	NS5B polymerase	Hepatitis C virus	inhibition	99.19%
CCOC(=O)C1=CN(N2CCN(c3nc(Nc4ccc5[nH]ncc5c4)nc(OC)n3)CC2)C(SC)N=C1		DNA polymerase	Hepatitis B virus	IC50	>1 µg/mL
COc1ccc(-c2cc(-c3ccc(Cl)cc3Cl)nc3cc(C(=O)O)nn23)cc1		RNA-dependent RNA polymerase	Hepatitis C virus	IC50	>10 µM
COc1ccc(S(=O)(=O)Nc2cc(-c3ccccc3)sc2C(=O)O)c(OC)c1		NS3 ATPase	Hepatitis C virus	IC50	5–20 µM
NC(=O)c1cnn2c(C3CCCCC3)c(-c3ccc(OCc4ccccc4)cc3)cnc12		RNA-dependent RNA polymerase	Hepatitis C virus	IC50	1–10 µM
O=C(O)c1nc(-c2ccc3ccccc3c2)[nH]c(=O)c1O		HCV polymerase	Hepatitis C virus	IC50	<100 µM
CC(C)=CCCc1c(-c2ccc(OCc3ccccc3)cc2)nc2cc(C(=O)O)[nH]n2c1=O		RNA-dependent RNA polymerase	Hepatitis C virus	IC50	<1 µM
CC[C@H](NC(=O)[C@H](CC(C)C)NC(=O)[C@@H](NC(=O)[C@@H](NC(=O)c1cnccn1)C(C)C)C(C)C)C(=O)C(=O)Nc1ccccc1		NS3 protease	Hepatitis C virus	Ki	>100 µM
O=C(/C=C/c1cccc(OC(F)(F)F)c1)Nc1ccsc1-c1nc(C(=O)O)c(O)c(=O)[nH]1		HCV polymerase	Hepatitis C virus	IC50	<25 µM
Cc1ccc(S(=O)(=O)Nc2cc(-c3cc4ccccc4o3)sc2C(=O)O)c(C)c1		NS3 ATPase	Hepatitis C virus	IC50	<5 µM
COc1ccc(-c2ccc(F)c(F)c2)c(-c2ccc3cc(-c4nc5cc(C(=O)O)ccc5n4C4CCCCC4)ccc3n2)c1	100 µM	NS5B polymerase	Hepatitis C virus	inhibition	101%
CCOC(=O)C1=CN(N2CCN(c3nc(Nc4ccc5cn[nH]c5c4)nc(OC)n3)CC2)C(SC)N=C1		DNA polymerase	Hepatitis B virus	IC50	0.1–1 µg/mL
CC(C)CCc1c(-c2ccc(OCc3ccccc3)cc2)nc2cc(C(=O)O)[nH]n2c1=O		RNA-dependent RNA polymerase	Hepatitis C virus	IC50	1–10 µM
O=C(NCCc1ccccc1)Nc1ccccc1-c1nc(C(=O)O)c(O)c(=O)[nH]1		HCV polymerase	Hepatitis C virus	IC50	<100 µM
COc1nc(Nc2ccc3cn[nH]c3c2)nc(N2CCN(C)CC2)n1	0.01 µg/mL	DNA polymerase	Hepatitis B virus	inhibition	10%
CNC(=O)c1c(-c2ccc(F)cc2)oc2ccc(OCc3cccc(C(=O)O)c3)cc12		Nonstructural protein 5B	Hepatitis C virus	IC50	≤0.5 µM
COc1nc(Nc2ccc3[nH]ncc3c2)nc(NN2CCOCC2)n1	1 µg/mL	DNA polymerase	Hepatitis B virus	inhibition	67%
Brc1cnn2c(C3CCCCC3)c(-c3ccc(OCc4ccccc4)cc3)cnc12		RNA-dependent RNA polymerase	Hepatitis C virus	IC50	>10 µM
COc1nc(NCCN(C)C)nc(Nc2ccc3[nH]ncc3c2)n1	1 µg/mL	Nonstructural protein 5B	Hepatitis C virus	inhibition	37%
CNC(=O)c1c(-c2ccc(F)cc2)oc2cc(OCc3nnnn3C)c(OC)cc12		Nonstructural protein 5B	Hepatitis C virus	IC50	≤0.5 µM

The first 6 rows once more:

O=C(O)c1ccc2c(c1)nc(-c1ccc3nc(-c4cc(OCCCN5CCCC5)ccc4-c4ccc(Cl)cc4)ccc3c1)n2C1CCCCC1 ; tested at: 33 µM ; protein: NS5B polymerase ; agent: Hepatitis C virus ; read-out: inhibition ; result: 97.83%
Cc1ccc(C(=O)N(c2cc(-c3ccccc3)sc2C(=O)O)C(C)C)c(O)c1 ; protein: NS3 ATPase ; agent: Hepatitis C virus ; read-out: IC50 ; result: 5–20 µM
O=C(O)c1nc(-c2ccccc2NS(=O)(=O)c2ccc(Cc3ncc(C(F)(F)F)cc3Cl)cc2)[nH]c(=O)c1O ; protein: HCV polymerase ; agent: Hepatitis C virus ; read-out: IC50 ; result: <100 µM
COc1ccc(-c2ccc(Cl)cc2)c(-c2ccc3cc(-c4nc5cccc(C(=O)O)c5n4C4CCCCC4)ccc3n2)c1 ; tested at: 100 µM ; protein: NS5B polymerase ; agent: Hepatitis C virus ; read-out: inhibition ; result: 102%
O=C(NCc1ccccc1F)Nc1ccccc1-c1nc(C(=O)O)c(O)c(=O)[nH]1 ; protein: HCV polymerase ; agent: Hepatitis C virus ; read-out: IC50 ; result: <100 µM
CON1C(Nc2ccc3cn[nH]c3c2)=NC(NC(C)C)=NC1NC(C)C ; tested at: 0.1 µg/mL ; protein: DNA polymerase ; agent: Hepatitis B virus ; read-out: inhibition ; result: 52%